Results: patent US9334246B2, “Substituted triazines for malaria treatment and chemoprophylaxis” (The United States of America, as represented by the …, priority 2013, dated 2016)

Tests used:
[1] = tested on: P. falciparum D6; assay: Malaria SYBR Green Fluorescence Assay, D6 strain; format: cell-based, Plasmodium falciparum
[2] = tested on: P. falciparum W2; assay: Malaria SYBR Green Fluorescence Assay, W2 strain; format: cell-based, Plasmodium falciparum
[3] = tested on: P. falciparum C235; assay: Malaria SYBR Green Fluorescence Assay, C235 strain; format: cell-based, Plasmodium falciparum
[4] = tested on: P. berghei; assay: Thompson Test, in vivo mouse malaria assay; design: species or system mice (ICR strain); settings: (80 × 3): 80 mg/kg for 3 days

Row | Substance | D6 (SYBR Green Assay IC50) [1] [µg/mL] | W2 (SYBR Green Assay IC50) [2] [µg/mL] | C235 (SYBR Green Assay IC50) [3] [µg/mL] | In vivo Results Thompson Assay (n/N Cures or Suppressive) [4]
1 | CC(C)(CNc1nc(nc(n1)C(Cl)(Cl)Cl)c2ccc(cc2)S(═O)(═O)C)CN3CCCCCC3 | 0.338 | 0.196 | 0.609 | 
2 | CN1CCN(CC1)c2ccc(Nc3nc(nc(n3)C(Cl)(Cl)Cl)c4ccc(cc4)S(═O)(═O)C)cc2 | 0.03 | 0.018 | 0.033 | (80 × 3) Suppressive
